The list shows a part of the results. Some salts or complexes appear as unconnected parts, following the source record. Calls of active or inactive are those of the source. Rule as the data show it: inconclusive = inhibition above about 80% without an active follow-up result; inactive = below that; test concentration not stated here.
Assay: M. tuberculosis H37Rv growth inhibitors, H37Rv strain (AID 1626);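 also: bacteria incubated seven days before Alamar blue readout; 0% = bacteria only wells and 100% = bacteria with antibiotic wells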
Details: hits give high values, concentration not given here
In the case of `CP(=O)(OC12CC3CC(CC(C3)C1)C2)OC12CC3CC(CC(C3)C1)C2`, the inhibition is reported as inactive: 4.41%. In the case of `CCOC(=O)c1ccc(NP(C)(=O)Oc2ccc(Cl)cc2)cc1` (centres undefined), the inhibition is reported as inactive: 12.1%. With `CN(C)C(=O)c1c([N+](=O)[O-])cc([N+](=O)[O-])cc1[N+](=O)[O-]` the inhibition was inactive: -1.48%. For `CP(=O)(Nc1ccc(Cl)cc1)Oc1ccc(F)cc1` (centres undefined), the inhibition was inactive: 0.2%. With `CC(C)(C)c1ccc(OP(C)(=O)O)cc1` the inhibition was inactive: 6.62%. For `COc1ccccc1OP(C)(=O)Nc1ccccc1Br` (centres undefined), the inhibition was inactive: -1.67%. In the case of `CCc1ccc(OP(C)(=O)Nc2cccnc2)cc1` (centres undefined), the inhibition is reported as inactive: 3.47%. In the case of `CP(=O)(Oc1ccccc1)N1CCOC1=O` (centres undefined), the inhibition is reported as inactive: -11.7%. With `O=C(OCCCN1CCCC1)C(O)(c1ccccc1)C1CCCCC1` (centres undefined) the inhibition was inactive: 0.09%. For `COc1ccccc1OP(C)(=O)Nc1c(C)n(C)n(-c2ccccc2)c1=O` (centres undefined), the inhibition was inactive: -5.32%. In the case of `COc1ccc(OP(C)(=O)Nc2ccc(Br)cc2)cc1` (centres undefined), the inhibition is reported as inactive: 16.2%. In the case of `CCN(CC)CC(O)COC(=O)C(O)(c1ccccc1)C1CCCCC1` (centres undefined), the inhibition is reported as inactive: -5.37%. For `CCc1ccc(OP(C)(=O)O)cc1`, the inhibition was inactive: -6.03%. For `COc1ccccc1OP(C)(=O)Nc1ccc(C)cc1C` (centres undefined), the inhibition was inactive: 0.69%. In the case of `CP(=O)(Nc1ccccn1)Oc1ccccc1` (centres undefined), the inhibition is reported as inactive: 2.71%. With `Cc1c(NP(C)(=O)Oc2ccc(C(C)C)cc2)c(=O)n(-c2ccccc2)n1C` (centres undefined) the inhibition was inactive: 2.6%. For `CN(C)CCOC(=O)C(O)(c1ccccc1)C1CCCC1` (centres undefined), the inhibition was inactive: -2.48%. With `COc1ccc(OP(C)(=O)Nc2ccccn2)cc1` (centres undefined) the inhibition was inactive: 2.91%. With `COc1ccccc1OP(C)(=O)Nc1ccc(Br)cc1` (centres undefined) the inhibition was inactive: 8.11%. With `CP(=O)(OCCOc1ccccc1)OCCOc1ccccc1` the inhibition was inactive: 3.55%. In the case of `CP(=O)(Nc1ccc(Cl)cc1Cl)Oc1ccccc1` (centres undefined), the inhibition is reported as inactive: 10.8%. In the case of `Cc1nc2ccc3ccccc3c2o1.O=[N+]([O-])c1cc([N+](=O)[O-])c(O)c([N+](=O)[O-])c1`, the inhibition is reported as inactive: -4.98%. In the case of `COc1ccc(OP(C)(=O)Nc2ccccc2Br)cc1` (centres undefined), the inhibition is reported as inactive: -1.04%. In the case of `COc1ccccc1OP(C)(=O)Nc1ccc(C)c(C)c1` (centres undefined), the inhibition is reported as inactive: -6.47%. In the case of `Cc1cc(C)cc(OP(C)(=O)Nc2cccc(C(F)(F)F)c2)c1` (centres undefined), the inhibition is reported as inactive: 2.62%. For `CP(=O)(Nc1ccccc1)Oc1ccc(F)cc1` (centres undefined), the inhibition was inactive: 18.8%. For `CCN(CC)CCCOC(=O)C(O)(c1ccccc1)C1CCCCC1` (centres undefined), the inhibition was inactive: -10.5%. For `COc1ccc(OP(C)(=O)Nc2ccc(SC(F)(F)F)cc2)cc1` (centres undefined), the inhibition was inactive: 7.03%. In the case of `CCOC(=O)c1ccc(NP(C)(=O)Oc2ccc(F)cc2)cc1` (centres undefined), the inhibition is reported as inactive: 5.95%. With `COc1ccc2c(c1O)-c1c(O)c(OC)cc3c1[C@H](C2)[N+](C)(C)CC3.O=[N+]([O-])c1cc([N+](=O)[O-])c([O-])c([N+](=O)[O-])c1[O-]` the inhibition was inactive: -2.9%. With `O=C(OCCN1CCN(CCOCc2ccccc2)CC1)C(O)(c1ccccc1)c1ccccc1` the inhibition was inactive: -0.28%. In the case of `O=C(OC1CN2CCC1CC2)c1ccc([N+](=O)[O-])cc1` (centres undefined), the inhibition is reported as inactive: -12.2%. With `CC(C)c1ccc(OP(C)(=O)Nc2ccc(SC(F)(F)F)cc2)cc1` (centres undefined) the inhibition was inactive: 14.2%. In the case of `CP(=O)(Nc1ccccc1F)Oc1ccccc1` (centres undefined), the inhibition is reported as inactive: 0.78%. In the case of `Cc1ccccc1NP(C)(=O)Nc1ccccc1C`, the inhibition is reported as inactive: -1.88%. In the case of `CP(=O)(Nc1ccc2c(c1)OCCO2)Oc1ccccc1` (centres undefined), the inhibition is reported as inactive: 7.44%. With `CCOP(C)(=S)SCC(=O)NC(C)(CC)C(=O)O` (centres undefined) the inhibition was inactive: 0.74%. With `CP(=O)(Nc1ccc(SC(F)(F)F)cc1)Oc1ccc(F)cc1` (centres undefined) the inhibition was inactive: 12.3%. With `Cc1cc(-c2cccc3ccccc23)c(C)cn1.O=[N+]([O-])c1cc([N+](=O)[O-])c(O)c([N+](=O)[O-])c1` the inhibition was inactive: 4.88%. In the case of `O=[N+]([O-])c1cc([N+](=O)[O-])c(NCC2CCS(=O)(=O)C2)c([N+](=O)[O-])c1` (centres undefined), the inhibition is reported as inactive: -6.16%. In the case of `O=[N+]([O-])c1ccc(OP2(=O)COCCO2)cc1` (centres undefined), the inhibition is reported as inactive: -1.56%. With `COc1ccc(NP(C)(=O)Oc2ccccc2OC)cc1` (centres undefined) the inhibition was inactive: 7.23%. With `CN(C)CCOC(=O)C(O)(c1ccccc1)C1CCCCC1` (centres undefined) the inhibition was inactive: 9.96%. With `COc1ccc(OP(C)(=O)Nc2cccc(Br)c2)cc1` (centres undefined) the inhibition was inactive: 11.7%. In the case of `CP(=O)(Nc1ccc(SC(F)(F)F)cc1)Oc1ccccc1` (centres undefined), the inhibition is reported as inactive: 12%. In the case of `CCCOc1ccc(NP(C)(=O)Oc2ccc(Cl)cc2)cc1` (centres undefined), the inhibition is reported as inactive: 34.4%. In the case of `COc1ccccc1OP(C)(=O)Nc1c(C)cccc1C` (centres undefined), the inhibition is reported as inactive: -8.95%. With `CN1CCCCC1COC(=O)C1(O)c2ccccc2CCc2ccccc21` (centres undefined) the inhibition was inactive: -3.48%. In the case of `CCOC(=O)C(CC)C1=NC(C)(C)Cc2ccccc21.O=[N+]([O-])c1cc([N+](=O)[O-])c(O)c([N+](=O)[O-])c1` (centres undefined), the inhibition is reported as inactive: -5.32%. For `O=[N+]([O-])c1cc([N+](=O)[O-])c(Nc2nnnn2CCO)c([N+](=O)[O-])c1`, the inhibition was inactive: -0.87%. In the case of `Cc1nc2ccc3ccccc3c2s1.O=[N+]([O-])c1cc([N+](=O)[O-])c(O)c([N+](=O)[O-])c1`, the inhibition is reported as inactive: 3.54%. In the case of `O=[N+]([O-])c1cc([N+](=O)[O-])c(-n2nnc3ccccc32)c([N+](=O)[O-])c1`, the inhibition is reported as inactive: -1.48%. With `CP(=O)(Nc1cccc(Br)c1)Oc1ccccc1` (centres undefined) the inhibition was inactive: 8.93%. With `Cc1cc(C)cc(OP(C)(=O)Nc2ccccn2)c1` (centres undefined) the inhibition was inactive: -6.1%. For `Cc1ccc(C)c(NP(C)(=O)Oc2ccccc2)c1` (centres undefined), the inhibition was inactive: 0.55%. With `Cc1cc(C)cc(OP(C)(=O)Nc2ccc(C)cc2C)c1` (centres undefined) the inhibition was inactive: 0.76%. For `CCOC(=O)c1ccc(NP(C)(=O)Oc2cc(C)cc(C)c2)cc1` (centres undefined), the inhibition was inactive: 5.03%. With `COc1ccccc1OP(C)(=O)Nc1cccc(Br)c1` (centres undefined) the inhibition was inactive: 7%. For `CC1=NCCc2c1[nH]c1ccccc21.O=[N+]([O-])c1cc([N+](=O)[O-])c(O)c([N+](=O)[O-])c1`, the inhibition was inactive: 1.71%. With `COc1ccccc1OP(C)(=O)Nc1cc(Cl)ccc1C` (centres undefined) the inhibition was inactive: 3.82%. With `Cc1cc(C)cc(OP(C)(N)=O)c1` (centres undefined) the inhibition was inactive: 0.88%. With `CCOC(=O)c1ccc(NP(C)(=O)Oc2ccccc2)cc1` (centres undefined) the inhibition was inactive: 0.85%. With `COc1ccccc1OP(C)(=O)Nc1ccc(C)cc1` (centres undefined) the inhibition was inactive: 8.29%. In the case of `Cc1cccc(C)c1OP(C)(N)=O` (centres undefined), the inhibition is reported as inactive: -0.35%. For `CC(C)(C)c1ccc(OP(C)(=O)Nc2ccc(SC(F)(F)F)cc2)cc1` (centres undefined), the inhibition was inactive: 13.5%. With `O=[N+]([O-])c1ccc2c(c1)C=Nc1ccccc1O2` the inhibition was inactive: 5.23%. For `CCN(CC)CCCOC(=O)C(O)(c1ccccc1)c1ccccc1`, the inhibition was inactive: -4.75%. For `CP(=O)(Nc1ccccn1)Oc1ccc(Cl)cc1` (centres undefined), the inhibition was inactive: 4.9%. With `CCOP(C)(=S)SCC(=O)NC(C)C(=O)O` (centres undefined) the inhibition was inactive: -3.41%. For `CCOC(=O)c1ccc(NP(C)(=O)Oc2ccc(OC)cc2)cc1` (centres undefined), the inhibition was inactive: 16.1%. For `Cc1cc(C)cc(OP(C)(=O)Nc2ccc(SC(F)(F)F)cc2)c1` (centres undefined), the inhibition was inactive: 6.75%. With `CCc1ccc(OP(C)(=O)N2CCN(c3ccc([N+](=O)[O-])cc3)CC2)cc1` (centres undefined) the inhibition was inactive: 14.9%. For `CP(=O)(NC(=O)Nc1ccccc1)Oc1ccccc1` (centres undefined), the inhibition was inactive: 2.49%. In the case of `CP(=O)(Oc1ccccc1)OC(c1ccccc1)C(F)(F)F` (centres undefined), the inhibition is reported as inactive: 0.01%. For `Cc1cccc(C)c1OP(C)(=O)Nc1ccc(SC(F)(F)F)cc1` (centres undefined), the inhibition was inactive: 6.12%. With `CP(=O)(Nc1ccc(SC(F)(F)F)cc1)Oc1ccc(Cl)cc1` (centres undefined) the inhibition was inactive: 11.5%. In the case of `COc1ccccc1OP(C)(=O)Nc1ccccc1` (centres undefined), the inhibition is reported as inactive: 9.46%. With `CP(=O)(Nc1ccccc1Br)Oc1ccccc1` (centres undefined) the inhibition was inactive: 10.9%. In the case of `CP(=S)(Nn1cnnc1)Oc1ccccc1` (centres undefined), the inhibition is reported as inactive: 7.07%.

Reference: PubChem BioAssay AID1626 (SRMLSC, 2009)
